Pooled drug test results. Numbers come from NIAID ChemDB, via PubChem.

All rows: growth or infection tests; species: HIV-1; cell line: MT-4; read-out: EC50

Blank or dashed fields: not listed here.

{"smiles": "O=C(COc1ccc2ccccc2c1)NCc1nnc(Nc2ccccc2)s1", "strain or isolate": "IIIB", "method": "MTT", "result": ">0.96 µg/mL"}
{"smiles": "COc1cc(/C=C/c2nc(NC(=S)Nc3cccc(C)c3)c3ccccc3n2)cc(OC)c1OC", "strain or isolate": "IIIB", "method": "MTT", "result": ">5.46 µg/mL"}
{"smiles": "CSc1ncc(C(c2ccccc2)n2ccnc2)c(-c2ccccc2)n1", "strain or isolate": "IIIB", "method": "cytopathic effect / MTT", "result": ">61.7 µM"}
{"smiles": "Cn1c2ccccc2c2c1cc(C#N)c(=O)n2-c1ccc([N+](=O)[O-])cc1", "strain or isolate": "H", "changes": "RT-K103N Y181C", "method": "cytopathic effect / MTT", "result": "0.13 µM"}
{"smiles": "CCC(=O)c1ccc(F)c([C@H]2C[C@H]2NC(=O)Nc2ccc(C#N)cn2)c1O", "strain or isolate": "IIIB", "method": "cytopathic effect / XTT", "result": "0.002 µM"}
{"smiles": "COc1cc(/C=C/c2nc(NC(=O)Nc3cccc([N+](=O)[O-])c3)c3ccccc3n2)cc(OC)c1OC", "strain or isolate": "IIIB", "method": "MTT", "result": ">1.17 µg/mL"}
{"smiles": "c1ccc(-c2oncc2C(c2ccccc2)n2cncn2)cc1", "strain or isolate": "IIIB", "method": "cytopathic effect / MTT", "result": ">200 µM"}
{"smiles": "COc1cc(/C=C/c2nc(NC(=S)Nc3ccc([N+](=O)[O-])cc3)c3ccccc3n2)cc(OC)c1OC", "strain or isolate": "IIIB", "method": "MTT", "result": ">3.87 µg/mL"}
{"smiles": "CCCCCCCCCCCCCC(=O)OC[C@@H]1C=C[C@H](n2cc(C)c(=O)[nH]c2=O)O1", "method": "p24", "result": "0.22 µM"}
{"smiles": "CC(C)(C)NC(=O)[C@@H]1C[C@@H]2CCCC[C@@H]2CN1C[C@@H](O)[C@H](Cc1ccccc1)NC(=O)[C@H]1CCCS(=O)(=O)C1", "strain or isolate": "IIIB", "method": "p24", "result": "<0.4 µM"}
{"smiles": "CSCSc1nc(Cc2c(F)cccc2F)c(C)c(=O)[nH]1", "strain or isolate": "IIIB", "changes": "RT-K103N Y181C", "method": "cytopathic effect / MTT", "result": ">100 µM"}
{"smiles": "N#CC1=CC2C(c3ccccc3N2CCN2CCOCC2)N(c2ccc([N+](=O)[O-])cc2)C1=O", "strain or isolate": "LAI", "method": "cytopathic effect / MTT", "result": "<1 µM"}
{"smiles": "CSCSc1nc(C(C)c2c(F)cccc2F)cc(=O)[nH]1", "strain or isolate": "IIIB", "changes": "RT-Y181C", "method": "cytopathic effect / MTT", "result": "29 µM"}
{"smiles": "NC[C@@H]1C[C@H](O)[C@H](n2cnc3c(N)ncnc32)O1", "strain or isolate": "IIIB", "method": "cytopathic effect / trypan blue", "result": ">500 µg/mL"}
{"smiles": "COc1cccc(N2CCN(c3cc4c(cc3N)c(=O)c(C(=O)O)cn4C3CC3)CC2)c1", "strain or isolate": "IIIB", "method": "cytopathic effect / MTT", "result": ">4.21 µM"}
{"smiles": "COc1cc(/C=C/c2nc(NC(=O)Nc3ccccc3Cl)c3ccccc3n2)cc(OC)c1OC", "strain or isolate": "IIIB", "method": "MTT", "result": ">1.69 µg/mL"}
{"smiles": "CCC(CO)n1cc(C(=O)O)c(=O)c2cc(N)c(N3CCN(c4ccccn4)CC3)cc21", "strain or isolate": "IIIB", "method": "cytopathic effect / MTT", "result": ">25.26 µM"}
{"smiles": "NC[C@H]1O[C@@H](n2cnc3c(N)ncnc32)C[C@@H]1N", "strain or isolate": "IIIB", "method": "cytopathic effect / trypan blue", "result": ">500 µg/mL"}
{"smiles": "Cc1cn([C@H]2C[C@H](N=[N+]=[N-])[C@@H](CO)O2)c(=O)[nH]c1=O", "strain or isolate": "NL4-3", "method": "RT activity", "setting": "6 d", "result": "<1 µM"}
{"smiles": "Clc1ccc(Nc2nnc(Cc3ccccn3)s2)cc1Cl", "strain or isolate": "IIIB", "method": "cytopathic effect / MTT", "result": ">100 µM"}
{"smiles": "Cc1cn([C@@H]2O[C@H](CO)C3(OS(=O)(=O)C=C3N)[C@H]2O[Si](C)(C)C(C)(C)C)c(=O)[nH]c1=O", "strain or isolate": "HE", "method": "cytopathic effect / trypan blue", "result": ">40 µg/mL"}
{"smiles": "Fc1ccc(NC(=S)NC2CCN(Cc3ccccc3)CC2)cc1", "strain or isolate": "IIIB", "method": "MTT", "result": ">34 µM"}
{"smiles": "COc1cc(/C=C/c2nc(NC(=S)Nc3ccccc3Cl)c3ccccc3n2)cc(OC)c1OC", "strain or isolate": "IIIB", "method": "MTT", "result": ">3.85 µg/mL"}
{"smiles": "O=C(Cc1ccccn1)NNC(=S)Nc1cccc(Cl)c1", "strain or isolate": "IIIB", "method": "cytopathic effect / MTT", "result": ">100 µM"}
{"smiles": "Cc1ccnc2c1NC(=O)c1cccnc1N2C1CC1", "strain or isolate": "IIIB", "method": "MTT", "result": "0.00965 µg/mL"}
{"smiles": "COc1cccc2c1N(C(=O)OC(C)C)C(CSC)C(=S)N2", "strain or isolate": "IIIB", "method": "cytopathic effect / XTT", "result": "0.009 µM"}
{"smiles": "CC(=O)N[C@H]1CSSC[C@@H](C(=O)N[C@@H](Cc2ccc(O)cc2)C(=O)O)NC(=O)[C@H](CCCCN)NC(=O)[C@H](CC(N)=O)NC1=O", "strain or isolate": "NL4-3", "method": "RT activity", "setting": "6 d", "result": ">2.5 µM"}
{"smiles": "CN1C=C(C(=O)O)Cc2ccc(N3CCN(c4nc5ccccc5s4)CC3)nc21", "strain or isolate": "IIIB", "method": "cytopathic effect / MTT", "result": "0.06 µM"}
{"smiles": "S=C(Nc1cccc(Br)c1)NC1CCN(Cc2ccccc2)CC1", "strain or isolate": "IIIB", "method": "MTT", "result": ">14.6 µM"}
{"smiles": "Nc1nc2c(ncn2[C@H]2C[C@@H](F)[C@@H](CO)O2)c(=O)[nH]1", "method": "cytopathic effect", "result": ">500 µM"}
{"smiles": "CC(C)(C)OC(=O)N[C@H](Cc1ccc(O)cc1)/C(O)=C(\\C#N)c1c(F)c(F)c(F)c(F)c1F", "strain or isolate": "IIIB", "method": "RT activity", "result": "43 µM"}
{"smiles": "NC[C@H]1O[C@@H](n2cnc3c(N)ncnc32)C[C@@H]1O", "strain or isolate": "IIIB", "method": "cytopathic effect / trypan blue", "result": ">500 µg/mL"}
{"smiles": "Fc1ccc(NC(=S)NC2CCN(Cc3ccccc3)CC2)cc1Cl", "strain or isolate": "IIIB", "method": "MTT", "result": ">15.7 µM"}
{"smiles": "COc1ccc(Cn2ccc3c(-c4ccc5c(c4)CCCO5)c(C(OC(C)(C)C)C(=O)O)n(C)c(=O)c32)cc1", "strain or isolate": "IIIB", "method": "MTS", "result": "0.1 µM"}
{"smiles": "CCCCCCCCCCCCCC(=O)NCC(C(=O)CCCCCCCCCCCCC)C(=O)NCCNC(=O)C(O)C(O[C@@H]1O[C@H](CO)[C@H](O)[C@H](O)[C@H]1O)C(O)CO", "strain or isolate": "IIIB", "method": "cytopathic effect / MTT", "result": ">100 µM"}
{"smiles": "CN(C)c1ncc(C(c2ccccc2)n2cncn2)c(-c2ccccc2)n1", "strain or isolate": "IIIB", "method": "cytopathic effect / MTT", "result": ">97 µM"}
{"smiles": "O=C(COc1ccc2ccccc2c1)NCc1n[nH]c(=S)n1Cc1ccccc1", "strain or isolate": "IIIB", "method": "MTT", "result": ">28.5 µg/mL"}
{"smiles": "COc1cc(/C=C/c2nc(NC(=S)Nc3ccc(Cl)cc3)c3ccccc3n2)cc(OC)c1OC", "strain or isolate": "IIIB", "method": "MTT", "result": ">1.73 µg/mL"}
{"smiles": "Cc1ccc(Cl)cc1NC(=S)NCc1ccco1", "strain or isolate": "IIIB", "method": "MTT", "result": ">100 µM"}
{"smiles": "Cc1cc(C)cc(S(=O)(=O)c2c(C(=O)NNCCO)[nH]c3ccc(Cl)cc23)c1", "changes": "RT-K103N Y181C", "method": "cytopathic effect / MTT", "result": "10 µM"}
{"smiles": "S=c1[nH]nc(Cc2ccccn2)n1-c1cccc(Cl)c1", "strain or isolate": "IIIB", "method": "cytopathic effect / MTT", "result": ">100 µM"}
{"smiles": "O=C1c2ccccc2C(=O)c2c1cc(S(=O)(=O)O)c(O)c2O", "strain or isolate": "IIIB", "method": "cytopathic effect", "result": "47.5 µg/mL"}
{"smiles": "CN1c2ccccc2C2C1C=C(c1noc(C(C)(C)C)n1)C(=O)N2c1ccc([N+](=O)[O-])cc1", "strain or isolate": "LAI", "method": "cytopathic effect / MTT", "result": "<1 µM"}
{"smiles": "CNc1cc2c(=O)c(C(=O)O)cn(C)c2cc1N1CCN(c2cccc(C(F)(F)F)c2)CC1", "strain or isolate": "IIIB", "method": "cytopathic effect / MTT", "result": ">6.32 µM"}
{"smiles": "O=C(COc1ccc2ccccc2c1)NCc1nnc(Sc2nc3ccccc3[nH]2)n1-c1ccccc1", "strain or isolate": "IIIB", "method": "MTT", "result": ">0.2 µg/mL"}
{"smiles": "NC[C@H]1O[C@@H](n2cnc3c(N)ncnc32)C[C@H]1O", "strain or isolate": "IIIB", "method": "cytopathic effect / trypan blue", "result": ">500 µg/mL"}
{"smiles": "COc1cc(/C=C/c2nc(NC(=O)Nc3ccccc3)c3ccccc3n2)cc(OC)c1OC", "strain or isolate": "IIIB", "method": "MTT", "result": ">2.13 µg/mL"}
{"smiles": "Cc1ccc(-n2c(CNC(=O)COc3ccc4ccccc4c3)n[nH]c2=S)cc1", "strain or isolate": "IIIB", "method": "MTT", "result": ">15.2 µg/mL"}
{"smiles": "Nc1ccn([C@@H]2CC[C@H](CO)O2)c(=O)n1", "strain or isolate": "RF", "method": "p24", "result": "5 µM"}
{"smiles": "O=C(O)CCCCCCCCCCCCC(=O)NC(CO[C@@H]1O[C@H](CO)[C@H](O)[C@H](O)[C@H]1O)C(=O)NCCOS(=O)(=O)O", "strain or isolate": "IIIB", "method": "cytopathic effect / MTT", "result": "20 µM"}
{"smiles": "N#CC1=CC2C(c3ccccc3N2CCc2cnc[nH]2)N(c2ccc([N+](=O)[O-])cc2)C1=O", "strain or isolate": "LAI", "method": "cytopathic effect / MTT", "result": "1–32 µM"}
{"smiles": "S=C(Nc1cccc(Cl)c1)NC1CCN(Cc2ccccc2)CC1", "strain or isolate": "IIIB", "method": "MTT", "result": ">28 µM"}
{"smiles": "O=C1CN=C(COc2ccc3ccccc3c2)NN1", "strain or isolate": "IIIB", "method": "MTT", "result": ">5.2 µg/mL"}
{"smiles": "Cc1cn(CCO[C@@H]2O[C@H](CO)[C@@H](N=[N+]=[N-])[C@H]2O)c(=O)[nH]c1=O", "strain or isolate": "IIIB", "method": "cytopathic effect", "result": ">100 µg/mL"}
{"smiles": "CCCCCCCCCCCCCCNC(=O)C(CO[C@@H]1O[C@H](CO)[C@H](O)[C@H](O)[C@H]1O)NC(=O)CC(=O)NCCS(=O)(=O)O", "strain or isolate": "IIIB", "method": "cytopathic effect / MTT", "result": ">100 µM"}
{"smiles": "O=C(COc1ccc2ccccc2c1)NCC(=O)NNC(=S)Nc1ccc(Br)cc1", "strain or isolate": "IIIB", "method": "MTT", "result": ">31.2 µg/mL"}
{"smiles": "COCCCCCCCCCCCC(=O)OC[C@@H]1C=C[C@H](n2cc(C)c(=O)[nH]c2=O)O1", "method": "p24", "result": "1.18 µM"}
{"smiles": "S=C(Nc1ccccc1Br)NC1CCN(Cc2ccccc2)CC1", "strain or isolate": "IIIB", "method": "MTT", "result": ">58 µM"}
{"smiles": "Cc1cn([C@H]2C=C[C@@H](CO)O2)c(=O)[nH]c1=O", "method": "p24", "result": "0.15 µM"}
{"smiles": "Nc1ccn([C@H]2CC[C@@H](CO)O2)c(=O)n1", "strain or isolate": "IIIB", "method": "XTT", "result": "0.069 µg/mL"}

A second listing of 7 rows from above:

smiles	strain or isolate	changes	method	setting	result
O=C(COc1ccc2ccccc2c1)NCC(=O)NNC(=S)Nc1ccc(Br)cc1	IIIB	-	MTT	-	>31.2 µg/mL
Cc1ccnc2c1NC(=O)c1cccnc1N2C1CC1	IIIB	-	MTT	-	0.00965 µg/mL
Cc1ccc(Cl)cc1NC(=S)NCc1ccco1	IIIB	-	MTT	-	>100 µM
COc1cc(/C=C/c2nc(NC(=S)Nc3cccc(C)c3)c3ccccc3n2)cc(OC)c1OC	IIIB	-	MTT	-	>5.46 µg/mL
Nc1ccn([C@H]2CC[C@@H](CO)O2)c(=O)n1	IIIB	-	XTT	-	0.069 µg/mL
Nc1ccn([C@@H]2CC[C@H](CO)O2)c(=O)n1	RF	-	p24	-	5 µM
O=C(O)CCCCCCCCCCCCC(=O)NC(CO[C@@H]1O[C@H](CO)[C@H](O)[C@H](O)[C@H]1O)C(=O)NCCOS(=O)(=O)O	IIIB	-	cytopathic effect / MTT	-	20 µM

Two numbers with a dash give a range or band. Conditions beyond the fields shown may differ between rows. ECn: concentration that inhibits the pathogen or its effect by n%.